Laboratory results: patent publication US7968297B2, “Method for identification, isolation and production of antigens to a specific pathogen” (Intercell AG, priority 2001, dated 2011)

How the values were obtained:
[1] = tested on: antibodies in human serum; experiment: Bacterial surface display library screening by MACS with biotinylated human serum; type: binding
[2] = tested on: purified IgGs from human sera; experiment: Ribosome display screening with purified human IgGs; type: binding; details: for No. of selected clones per ORF and screen: screen D: ribosome display, LSA250/1 library with IC sera (1686); for Location of identified Immunogenic region: ORFs selected by ribosome display only (screen D); for No. of selected clones per ORF and screen: D: Ribosome display: D, LSE150 in pMAL4.31 with P2 (1235)
[3] = screen C: LSA250/1 library in fhuA with IC sera 1 (571)
[4] = screen E: LSA50/6 library in lamB with IC sera 2 (454)
[5] = screen F: LSA50/6 library in lamB with patient sera P1 (1105)
[6] = screen H: LSA250/1 library in fhuA with patient sera 1 (IgA, 708)
[7] = screen A: LSA250/1 library in fhuA with patient sera 1 (655)

## Clumping factor A [compound 0358]
[1]; [3]
  No. of selected clones per ORF and screen: 1
[1]; [4]
  No. of selected clones per ORF and screen: E: 1
[2]
  No. of selected clones per ORF and screen: 2

## Clumping factor B [compound 2344]
[1]; [4]
  No. of selected clones per ORF and screen: 1
[1]; [5]
  No. of selected clones per ORF and screen: 3
[1]; [6]
  No. of selected clones per ORF and screen: 4
[2]
  No. of selected clones per ORF and screen: 9

## SrpA [compound 2378]
[1]; [3]
  No. of selected clones per ORF and screen: 1
[1]; [5]
  No. of selected clones per ORF and screen: F: 4,
[1]; [6]
  No. of selected clones per ORF and screen: H: 11
[2]
  No. of selected clones per ORF and screen: 7

## Fnbp [compound 2186]
[1]; [7]
  No. of selected clones per ORF and screen: A: 4, C: 4,
[1]; [3]
  No. of selected clones per ORF and screen: A: 4, C: 4,
[1]; [4]
  No. of selected clones per ORF and screen: 2
[2]
  No. of selected clones per ORF and screen: 5

## SdrC [compound 0093]
[1]; [7]
  No. of selected clones per ORF and screen: 1
[1]; [3]
  No. of selected clones per ORF and screen: 1
[1]; [5]
  No. of selected clones per ORF and screen: 6
[1]; screen G: LSA50/6 library in lamb with IC sera 1 (471)
  No. of selected clones per ORF and screen: G: 2
[2]
  No. of selected clones per ORF and screen: 5

B1: ORF1356 (protein, listed as Staphylococcus epidermidis)
chain: MSFLRKHTEIIFSYIIGIVSLFTGLIIFINLPLIKQFKGDKKVDTHVHNVWEFLNAFFAEIIKVMSKFIGGFPITSAIVIIVFGILVMLLGHTLFRTIKYDYDISIFFLVIGIMYFIITLLLMTQVYGFFAIVFIIPFTVHIGYIVYKDELNQDNRKNHYMWIIVTYGMSYLITQISLYGRIDANEIESIDILSVNTFFIIMWLLGQMAIWNFLFLRRSLPLTKEELGEEEPELSRTNKGNVSNQTKVHLKQLQNKTTEYARKTRRSVDLDKIRAKRDKFKQKINSIVDIQEDDIPNWMKKPKWVKPMYVQLFCGVIILFFAFLEFNNRNALFLTGEWELSQTQYVVEWVTLLLLLFIIIIYIATTLTYYLRDKYYYLQLFMGSILFFKFLTEFINIMVHGLLLSIFITPILLLMLIAMIVAYSLQLREK
[2]
  Location of identified Immunogenic region: aa 54-95
  No. of selected clones per ORF and screen: D: D: 32

B2: ORF1381 (protein, listed as Staphylococcus epidermidis)
chain: MLGEQYTQIKRPANRLTEKILGWFSWVFLLILTIVSMFIALVSFSNDTSIANLENTLNNNELVQQILANNDLSTTQFVIWLQNGVWAIIVYFIVCLLISFLALISMNIRILSGLLFLIAAIVTIPLVLLIVTLIIPILFFIIAMMMFARRDRIETVPSYYNEYDQPYYDERGFYEPESRNEHGYNDDVYEPMHTKKEDRNTRRQFNRNAQQQDSYNGITDNQPDEDTSSDQLYSDEYVDNEDKYSQFPKRAVESEYASQQTEDEPTVMSRQAKYNKKSKNTDFEDAQQEHMEGNQFDDVGVVEPQIDPKELKAQRKREKAEIRAKKKEKRKAYNKRMKERRKNQPSAVNQRRMNYEERRQMINNEQEDTDNNLNQQEDSKKEN
[2]
  Location of identified Immunogenic region: aa 7-44
  No. of selected clones per ORF and screen: D: D: 5

B3: ORF1849 (protein, listed as Staphylococcus epidermidis)
chain: LKRNFINNLIILLIAIMLSLLLKMLHVILPFMFGPILAALLCVKVLKLKIRWPFWLSQIGLILLGVQIGSTFTQQVIKDISKNWLTIVFVTILLILLALIIAFFFKKIAQVNLETAILSVIPGALSQMLVMAEENKKANILVVSLTQTSRVIFVVILVPLISYFFQDNHHEMNHTTMEVPTLSQTLNIWQIIILFSMVGIIYIGMSKINFPTKQLLAPIIVLIIWNMTTHLTFSLDHWLLATAQLIYMIRIGLQIANLMSDLKGRIAIAIAFQNIMLIVTTFIMIIGIHLITNESINELFLGAAPGGMSQIVLVAMATGADVAMISSYHIFRIFFILFVIAPLIGYFINVKLNNK
[2]
  Location of identified Immunogenic region: aa 254-301
  No. of selected clones per ORF and screen: D: D: 5

B4: ORF2040 (protein, listed as Staphylococcus epidermidis)
chain: VSNNNFKDDFEKNRQSINPDEHQTELKEDDKTNENKKEADSQNSLSNNSNQQFPPRNAQRRKRRRETATNQSKQQDDKHQKNSDAKTTEGSLDDRYDEAQLQQQHDKSQQQNKTEKQSQDNRMKDGKDAAIVNGTSESPEHKSKSTQNRPGPKAQQQKRKSESTQSKPSTNKDKKAATGAGIAGAAGVAGAAETSKRHHNKKDKQDSKHSNHENDEKSVKNDDQKQSKKGKKAAVGAGAAAGVGAAGVAHHNNQNKHHNEEKNSNQNNQYNDQSEGKKKGGFMKILLPLIAAILILGAIAIFGGMALNNHNDSKSDDQKIANQSKKDSDKKDGAQSEDNKDKKSDSNKDKKSDSDKNADDDSDNSSSNPNATSTNNNDNVANNNSNYTNQNQQDNANQNSNNQQATQGQQSHTVYGQENLYRIAIQYYGEGTQANVDKIKRANGLSSNNIHNGQTLVIPQ
[2]
  Location of identified Immunogenic region: aa 259-331
  No. of selected clones per ORF and screen: D: D: 23

B5: ORF2200 (protein, listed as Staphylococcus epidermidis)
chain: MLDFINHLLSYQFLNRALITSILVGIVCGTMGSIIVLRGLSLMGDAMSHAVLPGVALSFLFNIPMFIGALVTGMLASLFIGFITSNSKTKPDAAIGISFTAFLASGVIIISLINSTTDLYHILFGNLLAITHQSFWTTIVITVLVILLIIIFYRPLMISTFDATFSRMSGLNTTLIHYFVMLLLALVTVASIQTVGIILVVALLITPASTAFLISKQLYAMMVIASIISVISSIIGLYFSYIYNIPSGATIVICTFMIYIVTLSITRIKNKQKRSALT
[2]
  Location of identified Immunogenic region: aa 162-225
  No. of selected clones per ORF and screen: D: D: 19

B6: ORF2376 (protein, listed as Staphylococcus epidermidis)
chain: MNKKVEHIGNQYTSQENKKKQRQKMKMRVVRRRIALFGGILLAIILILLVLLVIQRHNNDQDAVERKEKETEFQKQQDEEIALKEKLNNLNDKDYIEKIARDDYYLSNKGEVIFRLPDDKKSSQSKTSNEKGN
[2]
  Location of identified Immunogenic region: aa 15-58
  No. of selected clones per ORF and screen: D: D: 7

B7: ORF2493 (protein, listed as Staphylococcus epidermidis)
chain: MKIRLTFIILAILSTIGLVLVLAKYPTGPHTINYNEPYTVLIAITTIVIMALPALILGIFNHLACRIISAILQISALMMWGFLVIISLIMGQIVIMLMASLTILALLVSSIVTLSVHPSTSDKIN
[2]
  Location of identified Immunogenic region: aa 69-113
  No. of selected clones per ORF and screen: D: D: 6

B8: ORF0005 (protein, listed as Staphylococcus epidermidis)
chain: MKQFLNITQRKFIEWLIILSIFIVSIPNKWTLMISIALSLLLLKRGALGVVQLIILYMLRSQIYTPYDTQEMAHYIVSMKYILIYVIGVFFLFKYVKHWIRNEMILRFIKSTMILMLLYIIMSLVVSNDPIESILKLLNFFIPLILIVMYVSLIKKIKNLINWINQFITLVIAFTFLFIVIAPKSYLIDEESLRSVFKDAHSFAVILAMGLVLYMVTIIKQQDYDVFNLLLLNIGMIELYLSNSRHIFISVILCLMLLLPLSHIKKRIKHPIIGAMILMAIAIINQPYIYHLFIKLILKGKNSQEVFMPSDMNIKAIDYALTEHPFLGSGFGIPMIKASSEIQYFNVATSNIIFGMIIFTGIIGLTLCTIYMLHMVLLVTFPMSITILLFLITIFVNMDYIILFDSVGLGILCYIFWGIYLKEGMYQYNNGQW
[2]
  Location of identified Immunogenic region: aa 105-128
  No. of selected clones per ORF and screen: D: D: 3

B9: ORF2764 (protein, listed as Staphylococcus epidermidis)
chain: MIVLRRLFQDRGAIFAIAIITIYVVLGVLAPLITFYEPNHIDTANKFAGISWSHWLGTDHLGRDVLTRIIYAIRPSLLYVFVALIISVVIGAILGFISGYFPGYIDAIIMRICDVMLAFPSYVVTLALITLFGMGVENIIIAFILTRWAWFCRVIRTSVMQYIEADHVKFAKVIGMNDLTIIRKHILPLTFTDIAIIASSSMCSMILQMSGFSFLGLGVKAPTAEWGMMLNEARKVMFTHPGMMMTTGVAIVIIVMAFNFLSDALQMAIDPRMSAKEKRLALKKGVKARDTA
[2]
  Location of identified Immunogenic region: aa 6-41
  No. of selected clones per ORF and screen: D: D: 4

B10: ORF2861 (protein, listed as Staphylococcus epidermidis)
chain: MKDNKMLFIIFMIGTFTVGMAEYVVTGLLTQIADDMKVSISSAGLLISVYAISVALIGPLMRIITLKVHAHRLLPILVAIFIISNLVGMLAPNFNVLLLSRLMSAAMHAPFFGVCMSVAATVAPPAKKTQAIALVQAGLTIAVMLGVPFGSFLGGFANWRVVFGFMIVLAIITMLGMIKFVPNVSLSAEANISKELTVFKNPHILIVIAIIVFGYSGVFTTYTFMEPMIRDFSPFKIVGLTVCLFMFGLGGVIGNLITGNVPEDKLTKNLYLTFLLLFVTIILFVTVIQNSILALIICFLFGFGTFGTTPLLNSKIILSGKEAPLLASTLAASIFNVANFLGAIIGSILLSIGLPYIQITLISGGIIVLGMLLNLVNQLYEKKHITFNEYS
[2]
  Location of identified Immunogenic region: aa 137-185
  No. of selected clones per ORF and screen: D: D: 11

B11: ORF0101 (protein, listed as Staphylococcus epidermidis)
chain: MKFCPHCGNPIKKEQSFCNKCGKHLKTSTQRKSENQIEHMREQQSYISREERQHHDSTFYKEQKHTGWLIVLSIIFVLLIAALLYGAYYAYNHYISDEQSHQTTESQQSNESDQNRDQSTGPSIDVFSDDFDQGYMKSASTSGYRGVYNGMTREEVEDKFGTSNGSVESLKWSYETYGDLAVAYDDNEVVSVGVAPNHISEDQFLSMYNEPDDRNSSQLIYDSNKDNDFSVLANVKNGDVTVIENVNQI
[2]
  Location of identified Immunogenic region: aa 26-109
  No. of selected clones per ORF and screen: D: D: 18

B12: ORF0201 (protein, listed as Staphylococcus epidermidis)
chain: MTKKKRLSPSEWLLKQSKRHKRKNTLYTAIVLLVALVLLIFAVKSIQVEPVKSDTRDKDSIRITYLGNVTLNKHIRQTNLNDVFKGIQDTLDHSDFSTGSLIVNDFSRNQKDNINKNIENIMFLRKHNVKSVNLINESMDNIQATAMMRKIDSQAGYNFLTGNGSNPINSKTVQQDIKGKKIANVSFTDIESNYTNSLKNTTSISLDPAIFYPLIKKLKENNDYVVVNVDWGIPNERNVTTRQKEYAHALANAGADVIIGHNTVIQKVENYKRTPIFYSLGNTTSDNFLSKNQKGMIVQQDWKGSHNQFHITPIQSKDGKISKDNMNKMDHIRFKNNIKDKSIDLKSDQNGGYTFEY
[2]
  Location of identified Immunogenic region: aa 11-53
  No. of selected clones per ORF and screen: D: D: 9
